The conditions of the data set: Table 3; aqueous buffer.

`O=[N+]([O-])c1cc(Cl)cc([N+](=O)[O-])c1O`: the Solubility result is recorded as “S (compounds soluble in aqueous buffer were indicated with “S”)”.

The values above are taken from patent publication US8778876B2, “Small-molecule inhibitors of Dengue and West Nile virus proteases” (The Board of Regents of the University of Texas System, priority 2011, dated 2014).
